Data as given in US20040097594A1 (priority 1998, published 2004).
Where two headings read alike, the source gives them in different places.

Tested on: HIV-1 (strain IIIB)
Assay: Antiviral Activity Assay in MT4 Cells (propidium iodide based procedure)
Format: cell-based
Conditions: read-out: IC50 (MT-4 cells), MT4 cells infected with HIV-1 strain IIIB, 5 days, lower line of each compound's entry

Q: Which IC50 does the source give for N#CCNc1cccc(S(=O)(=O)N(C[C@@H](O)[C@H](Cc2ccccc2)NC(=O)O[C@H]2CO[C@H]3OCC[C@H]32)OC2CCCC2)c1 here?
A: < 100 nM

Q: With COc1ccc(S(=O)(=O)N(C[C@@H](O)[C@H](Cc2ccccc2)NC(=O)OC2COC3OCCCC23)OC2CCCC2)cc1 (stereo partly shown) as the compound, how does the IC50 (tested form: mixture of the two diastereomers (3S,3aR)) read?
A: 100 to 500 nM

Q: How did the IC50 turn out when Nc1cccc(S(=O)(=O)N(C[C@@H](O)[C@H](Cc2ccccc2)NC(=O)OC2COC3OCCC23)OC2CCCC2)c1 (stereo partly shown) was run?
A: < 100 nM

Q: Nc1cccc(S(=O)(=O)N(C[C@@H](O)[C@H](Cc2ccccc2)NC(=O)OC2COC3OCCCC23)OC2CCCC2)c1 (stereo partly shown) was tested. Which IC50 did it give?
A: 100 to 500 nM
